Patent US7592419B2, “Macrocyclic inhibitors of hepatitis C virus NS3-serine protease” (Schering Corporation, priority 2003, dated 2009)

The chains behind the UniProt entries cited, without tags or fusion partners. Residues count along the entry.
UniProt P27958, 1027-1657 limits assumed: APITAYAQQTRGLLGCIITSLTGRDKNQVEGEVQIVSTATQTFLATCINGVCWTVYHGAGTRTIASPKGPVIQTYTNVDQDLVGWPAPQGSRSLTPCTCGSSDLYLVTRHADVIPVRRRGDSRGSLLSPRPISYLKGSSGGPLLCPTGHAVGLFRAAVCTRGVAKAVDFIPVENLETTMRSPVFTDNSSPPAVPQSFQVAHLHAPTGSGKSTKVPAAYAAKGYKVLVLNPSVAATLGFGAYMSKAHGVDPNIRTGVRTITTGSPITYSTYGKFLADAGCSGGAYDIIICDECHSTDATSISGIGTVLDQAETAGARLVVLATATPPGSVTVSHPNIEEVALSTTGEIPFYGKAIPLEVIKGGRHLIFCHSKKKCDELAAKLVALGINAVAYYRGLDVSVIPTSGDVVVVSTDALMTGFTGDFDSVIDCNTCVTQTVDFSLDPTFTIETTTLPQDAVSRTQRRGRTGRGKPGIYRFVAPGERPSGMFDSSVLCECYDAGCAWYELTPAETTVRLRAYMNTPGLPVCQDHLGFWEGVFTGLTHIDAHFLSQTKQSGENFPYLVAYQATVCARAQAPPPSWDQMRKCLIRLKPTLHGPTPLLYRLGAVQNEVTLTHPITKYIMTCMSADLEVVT
UniProt P27958, 1658-1711 partner limits assumed: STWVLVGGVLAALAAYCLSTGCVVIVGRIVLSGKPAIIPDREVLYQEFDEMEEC

Molecular target: Recombinant heterodimeric HCV NS3/NS4A protease (strain 1a) (Hepatitis C virus genotype 1a, UniProt P27958)
Test: Spectrophotometric assay for HCV protease inhibitory activity (chromogenic ester substrates)
Description: Assay for HCV Protease Inhibitory Activity:
Spectrophotometric Assay: Spectrophotometric assays for the HCV serine protease was performed on the inventive compounds by following the procedure described by R. Zhang et al, Analytical Biochemistry, 270 (1999) 268-275, the disclosure of which is incorporated herein by reference. The assay based on the proteolysis of chromogenic ester substrates is suitable for the continuous monitoring of HCV NS3 protease activity. The substrates were derived from the P side of the NS5A-NS5B junction sequence (Ac-DTEDVVX(Nva), where X=A or P) whose C-terminal carboxyl groups were esterified with one of four different chromophoric alcohols (3- or 4-nitrophenol, 7-hydroxy-4-methyl-coumarin, or 4-phenylazophenol). Presented below are the synthesis, characterization and application of these novel spectrophotometric ester substrates to high throughput screening and detailed kinetic evaluation of HCV NS3 protease inhibitors. Materials and Methods:
Enzyme Preparation: Recombinant heterodimeric HCV NS3/NS4A protease (strain 1a) was prepared by using the procedures published previously (D. L. Sali et al, Biochemistry, 37 (1998) 3392-3401). Protein concentrations were determined by the Biorad dye method using recombinant HCV protease standards previously quantified by amino acid analysis. Prior to assay initiation, the enzyme storage buffer (50 mM sodium phosphate pH 8.0, 300 mM NaCl, 10% glycerol, 0.05% lauryl maltoside and 10 mM DTT) was exchanged for the assay buffer (25 mM MOPS pH 6.5, 300 mM NaCl, 10% glycerol, 0.05% lauryl maltoside, 5 μM EDTA and 5 μM DTT) utilizing a Biorad Bio-Spin P-6 prepacked column.
Protease Assay: HCV protease assays were performed at 30° C. using a 200 μl reaction mix in a 96-well microtiter plate. Assay buffer conditions (25 mM MOPS pH 6.5, 300 mM NaCl, 10% glycerol, 0.05% lauryl maltoside, 5 μM EDTA and 5 μM DTT) were optimized for the NS3/NS4A heterodimer (D. L. Sali et al, ibid.)). Typically, 150 μl mixtures of buffer, substrate and inhibitor were placed in wells (final concentration of DMSO≦4% v/v) and allowed to preincubate at 30° C. for approximately 3 minutes. Fifty μls of prewarmed protease (12 nM, 30° C.) in assay buffer, was then used to initiate the reaction (final volume 200 μl). The plates were monitored over the length of the assay (60 minutes) for change in absorbance at the appropriate wavelength (340 nm for 3-Np and HMC, 370 nm for PAP, and 400 nm for 4-Np) using a Spectromax Plus microtiter plate reader equipped with a monochrometer (acceptable results can be obtained with plate readers that utilize cutoff filters). Proteolytic cleavage of the ester linkage between the Nva and the chromophore was monitored at the appropriate wavelength against a no enzyme blank as a control for non-enzymatic hydrolysis. The evaluation of substrate kinetic parameters was performed over a 30-fold substrate concentration range (−6-200 μM). Initial velocities were determined using linear regression and kinetic constants were obtained by fitting the data to the Michaelis-Menten equation using non-linear regression analysis (Mac Curve Fit 1.1, K. Raner). Turnover numbers (kcat) were calculated assuming the enzyme was fully active.
Evaluation of Inhibitors and Inactivators: The inhibition constants (Ki*) for the competitive inhibitors Ac-D-(D-Gla)-L-1-(Cha)-C-OH (27), Ac-DTEDVVA(Nva)-OH and Ac-DTEDWP(Nva)-OH were determined experimentally at fixed concentrations of enzyme and substrate by plotting vo/vi vs. inhibitor concentration ([I]o) according to the rearranged Michaelis-Menten equation for competitive inhibition kinetics: vo/vi=1+[I]o/(Ki(1+[S]o/Km)), where vo is the uninhibited initial velocity, vi is the initial velocity in the presence of inhibitor at any given inhibitor concentration ([I]o) and [S]o is the substrate concentration used. The resulting data were fitted using linear regression and the resulting slope, 1/(Ki(1+[S]o/Km), was used to calculate the Ki* value. […]

[1] = read-out: Activity Ki*, Table 3, 30° C., pH 6.5
[2] = read-out: Binding Activity (Ki rating), Table 1, 30° C., pH 6.5

Structure (SMILES) | Ki [1] [nM] | Ki [2] [nM]
C=CCNC(=O)C(=O)[C@@H]1CCCCCCCCC[C@H](NC(=O)N[C@H](CN(C)S(=O)(=O)c2cccs2)C(C)(C)C)C(=O)N2C[C@H]3[C@@H]([C@H]2C(=O)N1)C3(C)C | 3 | < 100
CN(C[C@@H](NC(=O)N[C@H]1CCCCCCCCC[C@@H](C(=O)C(N)=O)NC(=O)[C@@H]2[C@@H]3[C@H](CN2C1=O)C3(C)C)C(C)(C)C)S(=O)(=O)c1cccs1 | 2 | < 100
C=CCNC(=O)C(=O)[C@@H]1CCCCCCCCC[C@H](NC(=O)N[C@H](CN(C)S(C)(=O)=O)C(C)(C)C)C(=O)N2C[C@H]3[C@@H]([C@H]2C(=O)N1)C3(C)C | 3 | < 100
CN(C[C@@H](NC(=O)N[C@H]1CCCCCCCCC[C@@H](C(=O)C(N)=O)NC(=O)[C@@H]2[C@@H]3[C@H](CN2C1=O)C3(C)C)C(C)(C)C)S(C)(=O)=O | 3 | < 100

Read-outs that look alike come from different tables or passages of the source. Structures were worked out from names or drawings and are uncertain.
